# Laboratory results published in publication PMC9414862, “In Vitro and In Silico Potential Inhibitory Effects of New Biflavonoids from Ochna rhizomatosa on HIV-1 Integrase and Plasmodium falciparum” (Pharmaceutics, 2022).
# Chains of the proteins cited; added tags and fusions are not shown. Residues count along the entry.
# UniProt Q75002, 1152-1439: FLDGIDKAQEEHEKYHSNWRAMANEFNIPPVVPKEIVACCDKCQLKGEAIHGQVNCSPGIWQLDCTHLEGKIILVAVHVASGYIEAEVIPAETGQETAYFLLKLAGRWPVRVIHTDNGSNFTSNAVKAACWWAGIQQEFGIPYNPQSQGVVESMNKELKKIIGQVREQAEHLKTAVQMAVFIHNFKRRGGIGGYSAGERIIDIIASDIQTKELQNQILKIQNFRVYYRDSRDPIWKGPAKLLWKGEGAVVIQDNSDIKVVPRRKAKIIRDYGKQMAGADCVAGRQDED
# Molecular target: T1, HIV-1 integrase (purified recombinant HIV-1 subtype C IN) (Human immunodeficiency virus type 1 group M subtype C, UniProt Q75002)
# T1 construct: Recombinant HIV-1 subtype CIN was assembled on to the pre-processed donor DNA
# Test: HIV-1 Integrase strand transfer inhibition assay
# Assay type: biochemical
# Conditions: read-out: Assembly IC50 (anti-HIV-1 integrase activity); mean ± SD; '-' in Table 2 = no inhibition detected
# Description: The HIV-1 Integrase strand transfer inhibition assay was adapted from previously described methods. […] Following incubation at room temperature for 40 min and a stringent wash step, 5 µg/mL purified recombinant HIV-1 subtype CIN in integrase buffer 1 ([…] to ethanol, 50 µg/mL BSA, pH 7.5) was added to individual wells. […] Recombinant HIV-1 subtype CIN was assembled on to the pre-processed donor DNA through incubation for 45 min at room temperature. Strand transfer reaction was initiated through the addition of 10 µM (final concentration) double-stranded FITC-labelled target DNA (5′-[…]/36-FAM/-3′) annealed to (5′-[…]-/36-FAM/-3′) in integrase buffer 2 (same as buffer 1, except 25 µM MnCl2 was replaced with 2.5 µM MgCl2). After an incubation period of 60 min at 37 °C, the plates were washed using PBS containing 0.05% Tween 20 and 0.01% BSA, followed by the addition of peroxidase-conjugated sheep anti-FITC antibody (Thermo Scientific, Waltham, MA, USA) diluted 1:1000 in the same PBS buffer. Finally, the plates were washed and peroxidase substrate (Sure Blue Reserve™, KPL, Gaithersburg, MD, USA) was added to allow for detection at 620 nm using a Synergy MX (BioTek®) plate reader. Absorbance values were converted to % enzyme activity relative to the readings obtained from the control wells (enzyme without inhibitor).
substance,measurement,value
Chicoric acid [reference compound],IC50,6 ± 2 nM
